Results of unrelated studies side by side (data: NIAID ChemDB).

Shared fields: tests in culture; species: Herpes simplex virus 1; read by: cytopathic effect; measure: EC50

Lines come from different laboratories, so protocols vary. ECn: concentration that inhibits the pathogen or its effect by n%. Two numbers with a dash give a range or band. An empty or dashed field is not shown.

structure	cells	strain	result
CCCc1cn([C@H]2C[C@H](O)[C@@H](COP(=O)(O)O)O2)c(=O)[nH]c1=O	HEP-2	B2006 (TK-)	>797 µg/mL
CC1(CO)CCC(Cn2ccc(=O)[nH]c2=O)C1(C)C	E6SM	TK-/TK+ (VMW 1837)	300 µg/mL
Nc1nc2c(ncn2COCCO)c(=O)[nH]1	PRK	1 (PAA-resistant)	0.2 µg/mL
C/C=C/Cc1cn([C@H]2C[C@H](O)[C@@H](CO)O2)c(=O)[nH]c1=O	BHK-21	S3	10 µg/mL
Nc1nc2c(ccn2[C@H]2CO[C@@H](CO)C2)c(=O)[nH]1	E6SM	B2006 (TK-)	125 µg/mL
Cc1cn([C@H]2C[C@H](O[Si]34OCCN(CCO3)CCO4)[C@@H](CO)O2)c(=O)[nH]c1=O	HFF		>100 µg/mL
Nc1ccn(CCCC(O)CF)c(=O)n1	ESM	KOS	>400 µg/mL
Nc1nc2c(ncn2/C=C2/CC2(CO)CO)c(=O)[nH]1	HFF		>380 µM
CCc1cc([C@H]2C[C@H](O)[C@@H](CO)O2)c(F)cc1F	E6SM	KOS	>400 µg/mL
Nc1nc(=O)n([C@@H]2O[C@H](COP(=O)([O-])[O-])[C@@H](O)[C@H]2O)cc1F	VERO	KOS	20 µM
O=C(NS(=O)(=O)OC[C@H]1O[C@@H](n2ccc(=O)[nH]c2=O)[C@H](O)[C@@H]1O)O[C@H]1O[C@H](COC(=O)c2ccccc2)[C@@H](OC(=O)c2ccccc2)[C@H](OC(=O)c2ccccc2)[C@H]1OC(=O)c1ccccc1	HeLa		85 µM
COc1nc(N)nc2c1ncn2C=C1CC1CO	HFF		343 µM
Cc1cc([C@H]2C[C@H](O)[C@@H](CO)O2)c(Cl)cc1F	E6SM	VMW 1837	>400 µg/mL
CCCCCCCCCCCCCCCC(=O)OC[C@H]1OC(OC(=O)NS(=O)(=O)OC[C@H]2O[C@@H](n3ccc(=O)[nH]c3=O)[C@@H]3OC(C)(C)O[C@@H]32)[C@H](OC(=O)CCCCCCCCCCCCCCC)[C@@H](OC(=O)CCCCCCCCCCCCCCC)[C@@H]1OC(=O)CCCCCCCCCCCCCCC	HeLa		30 µM
C=Cc1cc([C@H]2C[C@H](O)[C@@H](CO)O2)c(F)cc1F	E6SM	McIntyre	>400 µg/mL
NC1=NC2C(C=CN2CC(CO)CCO)C(=O)N1	VERO		5.3 µg/mL
C=CCNc1nc(N)nc2c1ncn2/C=C1/C[C@@H]1CO	HFF		227 µM
C/C1=C\C=C\C2(C)C=C(CO[C@H]3O[C@H](CO)[C@H](O)[C@H](O)[C@H]3O)C(C)CC23OC([O-])C(C3=O)C(O)/C=C/C2(C)C=C(CO)C(C)CC23OC([O-])C(C3=O)C(O)/C(C)=C/C=C/C2C=C(CO[C@H]3O[C@H](CO)[C@H](O)[C@H](O)[C@H]3O)C(C)CC23OC([O-])C(C3=O)C(O)/C=C/C2(C)C=C(CO)C(C)CC23OC([O-])C(C3=O)C1O	VERO	KOS	11 µg/mL
CC(=O)Oc1ccc([C@@H]2CC(=O)c3c(cc(OC(C)=O)c(-c4c(OC(C)=O)cc5c(c4OC(C)=O)C(=O)C[C@@H](c4ccc(OC(C)=O)cc4)O5)c3OC(C)=O)O2)cc1	HFF		>4 µg/mL
Nc1nc(Cl)c2ccn([C@H]3CO[C@@H](CO)C3)c2n1	E6SM	B2006 (TK-)	>400 µg/mL
OC[C@H]1O[C@@H](c2cc(Cl)c(F)cc2F)C[C@@H]1O	E6SM	KOS	>400 µg/mL
CC(=O)OC[C@H]1O[C@@H](c2ccccc2)C[C@@H]1OC(C)=O	E6SM	KOS	>400 µg/mL
CC1=CC(CO)(CO)C[C@H]1n1ccc(N)nc1=O	CCL-81		>100 µg/mL
N=C(N)CCNC(=O)c1c[nH]c(NC(=O)c2c[nH]c(NC(=O)c3ccc(CC(=O)Nc4c[nH]c(C(=O)Nc5c[nH]c(C(=O)NCCC(=N)N)c5)c4)cc3)c2)c1	PRK		10 µg/mL
Nc1nc2c(ncn2COC(CO)CO)c(=O)[nH]1	VERO	K1	0.17 µM
Nc1nc2c(ncn2[C@@H]2C[C@H](CO)[C@H]2CO)c(=O)[nH]1	VERO		1.8 µg/mL
Nc1ncnc2c1ncn2[C@@H]1C[C@H](CO)[C@@H](O)[C@@H]1O	HEP-2	HF	2.8–9 µg/mL
Cc1cn(C(CF)CCCO)c(=O)[nH]c1=O	ESM	KOS	>400 µg/mL
CCCSc1nc(N)nc2c1ncn2/C=C1/C[C@@H]1CO	HFF		>343 µM
CC1(C)C(OC2O[C@H](C(=O)O)[C@@H](O)[C@H](N[C@@H]3O[C@H](CO)[C@H](O)[C@H](O)[C@H]3O)[C@H]2OC2O[C@H](O)[C@@H](O)[C@H](O)[C@H]2C(=O)O)CC[C@@]2(C)C1CC[C@]1(C)C2C(=O)C=C2C3C[C@@](C)(C(=O)O)CC[C@]3(C)CC[C@]21C	VERO		16 µg/mL
Nc1ncnc2c1ncn2C[C@@H](CO)OCP(=O)(O)O	PRK	F	1–3 µg/mL
O=c1[nH]c(=O)n([C@H]2C[C@H](O)[C@@H](CO)O2)cc1I	PRK	F	0.15 µg/mL
CC1=C[C@H](n2ccc(N)nc2=O)C[C@@]1(CO)c1ccccc1	CCL-81		>100 µg/mL
CC1(CO)CCC(Cn2nnc3c(=O)[nH]cnc32)C1(C)C	E6SM	KOS	≥200 µg/mL
Nc1nc2c(ncn2COC2COP(=O)(O)OC2)c(=O)[nH]1	HEF		1.69 µM
Nc1nc(NC2CC2)c2ncn(C=C3CC3CO)c2n1	HFF		73.4 µM
CCCCCCCCCCc1nccn(C(CO)OC(CO)CO)c1=O	MRC-5		>100 µM
C/C1=C\C=C\C2(C)C=C(CO)C(C)CC23OC([O-])C(C3=O)C(O)/C=C/C2(C)C=C(CO)C(C)CC23OC([O-])C(C3=O)C(O)/C(C)=C/C=C/C2C=C(CO)C(C)CC23OC([O-])C(C3=O)C(O)/C=C/C2(C)C=C(CO)C(C)CC23OC([O-])C(C3=O)C1O	VERO	KOS	20 µg/mL
Nc1nc2c(ncn2/C=C2\CC2(CO)CO)c(=O)[nH]1	HFF		>380 µM
Nc1nc2c(ncn2COC(CO)CO)c(=O)[nH]1	VERO	TK-	18 µg/mL
N=C(N)CCNC(=O)c1c[nH]c(NC(=O)c2c[nH]c(NC(=O)CCCCCCC(=O)Nc3c[nH]c(C(=O)Nc4c[nH]c(C(=O)NCCC(=N)N)c4)c3)c2)c1	PRK		10 µg/mL
Nc1nc2c(ncn2/C=C2/CC2(CO)CO)c(=O)[nH]1	HFF		>404 µM
CC1(CO)CCC(Cn2nnc3c(Cl)ncnc32)C1(C)C	E6SM	TK-/TK+ (VMW 1837)	40 µg/mL
Nc1nc2c(ncn2CCC(CO)CO)c(=O)[nH]1	VERO	TK-	>100 µg/mL
CC(=O)N[C@H]1C(OCCCCC(=O)NCCCC[C@H](NC(=O)CCCCOC2O[C@H](CO)[C@H](O)[C@H](O)[C@H]2NC(C)=O)C(=O)N[C@@H](CCCCNC(=O)CCCCOC2O[C@H](CO)[C@H](O)[C@H](O)[C@H]2NC(C)=O)C(=O)NCCNP(=O)(O)COCCn2cnc3c(N)ncnc32)O[C@H](CO)[C@H](O)[C@@H]1O	HepG2		0.047 µM
CCCCCCCCCCCCCC(=O)NC(C)(C)C(=O)N1CCCC1C(=O)N[C@@H](CC(C)C)C(=O)N[C@H](C(=O)N[C@@H](CCC(N)=O)C(=O)N[C@H](CO)CC(C)C)C(C)C	VERO		2.2 µM
Nc1nc(=O)n([C@H]2C=C(F)[C@@H](CO)O2)cc1F	VERO	KOS	20 µM
Nc1nc2c(ncn2COCCO)c(=O)[nH]1	HFF	T28387 acyclovir-resistant	>50 µg/mL
C/C1=C\C=C\C2(C)C=C(CO[C@H]3O[C@H](CO)[C@H](O)[C@H](O)[C@H]3O)C(C)CC23OC([O-])C(C3=O)C(O)/C=C/C2(C)C=C(C=O)C(C)CC23OC([O-])C(C3=O)C(O)/C(C)=C/C=C/C2C=C(CO[C@H]3O[C@H](CO)[C@H](O)[C@H](O)[C@H]3O)C(C)CC23OC([O-])C(C3=O)C(O)/C=C/C2(C)C=C(C=O)C(C)CC23OC([O-])C(C3=O)C1O	VERO	KOS	11 µg/mL
COC(=O)[C@H](C)NP(=O)(OCC1C/C1=C/n1cnc2c(N)ncnc21)Oc1ccccc1	HFF		<0.07 µM
Nc1ncnc2c1ncn2C[C@H](O)CO	PRK	KOS	10 µg/mL
Cc1cc([C@@H]2C[C@H](O)[C@@H](CO)O2)c(F)cc1Cl	E6SM	KOS/ACV-R	>400 µg/mL
CS(=O)(=O)Cc1cn([C@H]2C[C@H](O)[C@@H](CO)O2)c(=O)[nH]c1=O	PRK	KOS McIntyre F	4 µg/mL
CCCCCOc1nc(N)nc2c1ncn2/C=C1/C[C@@H]1CO	HFF		>330 µM
Nc1nc2c(ncn2C=C2CC2CO)c(=O)[nH]1	HFF		61.7 µM
CC[Si]1(C(C)C)O[C@H]2[C@@H](O)[C@H](c3ccccc3)O[C@@H]2CO[Si](C(C)C)(C(C)C)O1	E6SM	KOS	>3.2 µg/mL
CCCOc1nc(N)nc2c1ncn2/C=C1/C[C@@H]1CO	HFF		42.5 µM
Nc1nc2c(ncn2CCCC(O)CF)c(=O)[nH]1	ESM	KOS	>400 µg/mL
CCCCCCCCCCc1nccnc1OCCCCO	MRC-5		>10 µM
Nc1ncnc2c1ncn2/C=C1/C[C@H]1CO	HFF		460 µM
N=C(N)CCNC(=O)c1c[nH]c(NC(=O)c2c[nH]c(NC(=O)/C=C/C(=O)Nc3c[nH]c(C(=O)Nc4c[nH]c(C(=O)NCCC(=N)N)c4)c3)c2)c1	PRK		10 µg/mL
COC(=O)[C@H](C)NP(=O)(OCC1C/C1=C/n1cnc2c(NC3CC3)nc(N)nc21)Oc1ccccc1	HFF		1.3 µM
Nc1nc2c(ncn2C[C@]2(CO)C[C@H]2CO)c(=O)[nH]1	VERO		1.3 µg/mL

The last 7 rows once more:

CCCOc1nc(N)nc2c1ncn2/C=C1/C[C@@H]1CO ; cells: HFF ; result: 42.5 µM
Nc1nc2c(ncn2CCCC(O)CF)c(=O)[nH]1 ; cells: ESM ; strain: KOS ; result: >400 µg/mL
CCCCCCCCCCc1nccnc1OCCCCO ; cells: MRC-5 ; result: >10 µM
Nc1ncnc2c1ncn2/C=C1/C[C@H]1CO ; cells: HFF ; result: 460 µM
N=C(N)CCNC(=O)c1c[nH]c(NC(=O)c2c[nH]c(NC(=O)/C=C/C(=O)Nc3c[nH]c(C(=O)Nc4c[nH]c(C(=O)NCCC(=N)N)c4)c3)c2)c1 ; cells: PRK ; result: 10 µg/mL
COC(=O)[C@H](C)NP(=O)(OCC1C/C1=C/n1cnc2c(NC3CC3)nc(N)nc21)Oc1ccccc1 ; cells: HFF ; result: 1.3 µM
Nc1nc2c(ncn2C[C@]2(CO)C[C@H]2CO)c(=O)[nH]1 ; cells: VERO ; result: 1.3 µg/mL